Compound potency records, mixed from different reports. Data source: NIAID ChemDB in PubChem.

Shared fields: tests in culture; agent: HIV-1; read-out: inhibition

Percent inhibition refers to the dose given; in toxicity tests it is the harm to the cells.

SMILES,changes,read by,cells,dose,conditions,strain,value
CCc1c(Sc2ccccc2)n(COCc2ccccc2)c(=O)[nH]c1=O,,p24,MT-4,0.0058 µM,,A012B,90%
c1ccc2c(-c3ccc(-c4ccc(-c5ccc(-c6cccc7ccccc67)s5)c5ccccc45)s3)cccc2c1,,p24 / ELISA / antigen,C8166,1 µM,,IIIB,45.45%
O=C(Cc1ccccc1)Nn1c(-c2ccccc2)nc2ccccc2c1=O,,cytopathic effect / XTT,CEM + CEM-SS,63 µM,,RF,59%
Cc1cn([C@@H]2C=CC[C@@H](CO)O2)c(=O)[nH]c1=O,,ELISA,MT-4,100 µM,,IIIB,0%
COc1ccc(C[C@H]2COC(=O)[C@@H]2Cc2ccc(O[C@@H]3O[C@H](CO)[C@@H](O)[C@H](O)[C@H]3O)c(OC)c2)cc1OC,,p24,H9,0.05 µM,,IIIB,0%
Cc1cccc2c1NC(=O)C2CC(=O)N[C@@H](Cc1ccccc1)C(=O)N(C)c1cccc(Cl)c1,,fluorescence,,20 µM,,NL4-3,85%
CNC(=O)c1cn2c(c1O)C(=O)N(Cc1ccc(F)cc1)CC2,,p24,MT-4,95 µM,,,≤20%
CC(C)CN(C[C@@H](O)[C@H](Cc1ccccc1)NC(=O)[C@@H](NC(=O)CNC(C)(C)c1cccc(F)c1)C(C)C)S(=O)(=O)c1ccc2ncccc2c1,,,MT-2,90 µM,,RF,<1%
O=C(NCCc1ccccc1)Nc1nc(C(F)(F)F)cs1,,cytopathic effect / XTT,MT-4,10 µg/mL,,,16–31%
O=c1oc2cc(O)c(O)cc2c(O)c1-c1coc2c1c(=O)oc1cc(O)c(O)cc12,,MTT,MT-4,1 µM,,IIIB,25%
Cc1cn([C@H]2C=CC[C@@H](CO)O2)c(=O)[nH]c1=O,,ELISA,MT-4,100 µM,,IIIB,0%
CC(C)(C)NC(=O)[C@@H]1CCCN1C(=O)[C@@H](O)[C@H](Cc1ccccc1)NC(=O)[C@H](CC(N)=O)NC(=O)OCc1ccccc1,PR-I84V,RT activity,MOLT-4,5 µM,,pNL432(PR-I84V),0%
CCSC(=O)N1c2ccc3ccccc3c2C=CC1C#N,,syncytia,MOLT-3,50 µM,,IIIB,0%
CCCCOC(=O)c1ccc(NC(=O)NCCc2ccccc2)cc1,,cytopathic effect / XTT,MT-4,1 µg/mL,,,0%
CC(C)CN(C[C@@H](O)[C@H](Cc1ccccc1)NC(=O)[C@@H](NC(=O)CNC(C)(C)c1cccc(F)c1)C(C)(C)C)S(=O)(=O)c1ccc2cn[nH]c2c1,,,MT-2,90 µM,,RF,<1%
COC(=O)N1c2ccc3ccccc3c2C=CC1C#N,,syncytia,MOLT-3,50 µM,,IIIB,37.8%
Cc1cn([C@@H]2C[C@H](CO)N(CCC#N)C2)c(=O)[nH]c1=O,,,,100 µM,,,0%
Cc1ccc(C)c2c1NC(=O)C2CC(=O)N[C@@H](Cc1ccccc1)C(=O)N(C)c1cccc(F)c1,,fluorescence,,2 µM,,NL4-3,0%
CC(C)CN(C[C@@H](O)[C@H](Cc1ccccc1)NC(=O)[C@@H](NC(=O)CNC(C)(C)c1cccc(F)c1)C(C)(C)C)S(=O)(=O)c1ccc2ncccc2c1,,,MT-2,90 µM,,RF,<1%
C[C@H]1[C@@H](OC(=O)CCC(=O)O)O[C@@H]2O[C@@]3(C)CC[C@H]4[C@H](C)CC[C@@H]1[C@@]24OO3,,p24,PM1,0.6 µM,,BaL,36%
O=S(=O)(O)c1ccc(-c2c3nc(c(-c4ccc(S(=O)(=O)O)cc4)c4ccc([nH]4)c(-c4ccc(S(=O)(=O)O)cc4)c4nc(c(-c5ccc(S(=O)(=O)O)cc5)c5ccc2[nH]5)C=C4)C=C3)cc1,,β-galactosidase,MAGI,50 µg/mL,,IIIB,93%
Cc1cn([C@@H]2C[C@H](CO)N(C=O)C2)c(=O)[nH]c1=O,,,,100 µM,,,0%
CCN(CC)C(=S)S,,p24,PBL,0.00000075 µg/mL,,LAV,33%
CCOC(=O)N1c2ccc3ccccc3c2C=CC1C#N,,syncytia,MOLT-3,50 µM,,IIIB,73.7%
CC(C)CN(C[C@@H](O)[C@H](Cc1ccccc1)NC(=O)[C@@H](NC(=O)CNC(C)(C)c1cccc(F)c1)C(C)(C)C)S(=O)(=O)c1ccc2nc(N)sc2c1,,,MT-2,90 µM,,RF,<1%
[N-]=[N+]=NC[C@H]1[C@H](n2cnc3c(N)ncnc32)O[C@@H]1CO,,antigen,MT-4,3 µg/mL,,,85%
CC1(C)[C@@H](O[C@H]2O[C@H](C(=O)O)[C@@H](O)[C@H](O)[C@H]2O[C@@H]2O[C@H](C(=O)O)[C@@H](O)[C@H](O)[C@H]2O)CC[C@]2(C)[C@H]3C(=O)C=C4[C@@H]5C[C@@](C)(C(=O)O)CC[C@]5(C)CC[C@@]4(C)[C@]3(C)CC[C@@H]12,,cytopathic effect,MT-4,300 µM,,IIIB,100%
CC(C)CN(C[C@@H](O)[C@H](Cc1ccccc1)NC(=O)[C@@H](NC(=O)CNC(C)(C)c1ccccc1)C(C)(C)C)S(=O)(=O)c1ccc2ncccc2c1,,,MT-2,90 µM,,RF,<1%
C=C(C)[C@@H]1CC[C@]2(C(=O)NCCCCCCCC(=O)N[C@@H](CC(C)C)[C@@H](O)CC(=O)O)CC[C@]3(C)[C@H](CC[C@@H]4[C@@]5(C)CC[C@H](O)C(C)(C)[C@@H]5CC[C@]43C)[C@@H]12,I84S,p24,HeLa P4 + HeLa,10 µM,,LAI-R(GP41-I84S),30%
O=P(O)(O)OP(=O)(O)OP(=O)(O)OP(=O)(O)OP(=O)(O)OP(=O)(O)OP(=O)(O)OP(=O)(O)OP(=O)(O)OP(=O)(O)OP(=O)(O)OP(=O)(O)OP(=O)(O)OP(=O)(O)OP(=O)(O)O,,cytopathic effect / MTT,CEM,33.3 µg/mL,,IIIB,60%
CN(C(=O)[C@H](Cc1ccccc1)NC(=O)Cc1cccc2ccccc12)c1ccc(Cl)cc1,,fluorescence,,2 µM,,NL4-3,98%
CC(C)CN(C[C@@H](O)[C@H](Cc1ccccc1)NC(=O)[C@@H](NC(=O)CNC(C)(C)c1cccc(F)c1)C(C)(C)C)S(=O)(=O)c1ccc2ncsc2c1,,,MT-2,90 µM,,RF,<1%
[N-]=[N+]=N[C@H]1[C@H](n2cnc3c(N)ncnc32)O[C@@H]1CO,,antigen,MT-4,100 µg/mL,,,99.9%
C[C@@H](CC[C@@]1(O)O[C@H]2C[C@H]3[C@@H]4CC=C5C[C@@H](O[C@@H]6O[C@H](CO)[C@H](O[C@@H]7O[C@H](CO)[C@@H](O)[C@H](O[C@@H]8OC[C@@H](O)C(O)[C@H]8O)[C@H]7O[C@@H]7O[C@H](CO)[C@@H](O)[C@H](O)[C@H]7O)[C@H](O)[C@H]6O)CC[C@]5(C)[C@H]4CC(O)[C@]3(C)[C@H]2[C@@H]1C)CO[C@@H]1O[C@H](CO)[C@@H](O)[C@H](O)[C@H]1O,,luciferase / single cycle,SupT1,30 µM,pseudotyped,,46.2%
C=CC[C@H](NC(=O)[C@H](Cc1ccccc1)NS(=O)(=O)N1CCOCC1)C(=O)N[C@@H](CC1CCCCC1)[C@@H](O)C[C@H](C(=O)NCCCC)C(C)C,,cytopathic effect / XTT,MT-2,4.3 µM,,IIIB,77%
Cc1cn([C@H]2CN[C@@H](CO)C2)c(=O)[nH]c1=O,,,,100 µM,,,0%
Cc1ccc(C)c2c1NC(=O)C2CC(=O)N[C@@H](Cc1ccccc1)C(=O)N(C)c1cccc(Cl)c1,,fluorescence,,2 µM,,NL4-3,27%
Cc1ccc(-c2ccc3c(c2)C=C(C(=O)Nc2ccc(C[N+](C)(C)C4CCOCC4)cc2)CCC3)cc1,,p24,PBMC,1 µM,,Du301 CLADE C,100%
O=S(=O)(O)c1ccc(-c2c3nc(c(-c4ccc(S(=O)(=O)O)cc4)c4ccc([nH]4)c(-c4ccc(S(=O)(=O)O)cc4)c4nc(c(-c5ccccc5)c5ccc2[nH]5)C=C4)C=C3)cc1,,β-galactosidase,MAGI,50 µg/mL,,IIIB,81%
Nc1ccn([C@H]2CC=C[C@@H](CO)O2)c(=O)n1,,ELISA,MT-4,100 µM,,IIIB,0%
CC(=O)[C@H]1[C@@H](OC(=O)CC[C@H](C)CO[C@@H]2O[C@H](CO)[C@@H](O)[C@H](O)[C@H]2O)C[C@H]2[C@@H]3CC=C4C[C@@H](O[C@@H]5O[C@H](CO)[C@H](O[C@@H]6O[C@H](CO)[C@@H](O)[C@H](O[C@@H]7OC[C@@H](O)C(O)[C@H]7O)[C@H]6O[C@@H]6O[C@H](CO)[C@@H](O)[C@H](O)[C@H]6O)[C@H](O)[C@H]5O)CC[C@]4(C)[C@H]3CC(=O)[C@@]21C,,luciferase / single cycle,SupT1,30 µM,pseudotyped,,29.42%
CC(C)CN(C[C@@H](O)[C@H](Cc1ccccc1)NC(=O)[C@@H](NC(=O)CNC(C)(C)c1cccc(F)c1)C(C)C)S(=O)(=O)c1ccc2ncsc2c1,,,MT-2,90 µM,,RF,<1%
CC(=O)C1=CC=CN(C(=O)c2ccccc2)C1C#N,,syncytia,MOLT-3,50 µM,,IIIB,0%
O=C(NCCc1ccccc1)NCc1ccoc1,,cytopathic effect / XTT,MT-4,0.1 µg/mL,,,3%
CC[C@@H]1C=CC[C@@H](n2cnc3c(N)ncnc32)O1,,ELISA,MT-4,100 µM,,IIIB,0%
O=c1[nH]cnc2c1ncn2[C@@H]1O[C@H](CO)[C@H]1COS(=O)(=O)O,,antigen,MT-4,100 µg/mL,,,>99.9%
O=C1[C@@H](Cc2ccccc2)NC(=S)N1Cc1ccccc1,,cytopathic effect / XTT,MT-4,10 µg/mL,,,29–46%
NCC(=O)N1CCC[C@H]1C(=O)NCC(N)=O,,p24,MT-2,20 µM,,LAV,61%
CC(C)CN(C[C@@H](O)[C@H](Cc1ccccc1)NC(=O)[C@@H](NC(=O)CNC(C)(C)c1ccccc1)C(C)(C)C)S(=O)(=O)c1ccc2ncsc2c1,,,MT-2,90 µM,,RF,<1%
Cc1ccc(N(C)C(=O)[C@H](Cc2ccccc2)NC(=O)Cc2ccc3ccccc3c2)cc1,,fluorescence,,2 µM,,NL4-3,80%
CCNC(=O)c1cn2c(c1O)C(=O)N(Cc1ccc(F)cc1)CC2,,p24,MT-4,95 µM,,,≤20%
N#Cc1csc(NC(=O)NCCc2ccccc2)n1,,cytopathic effect / XTT,MT-4,100 µg/mL,,,0%
CNC(=O)c1cn2c(c1O)C(=O)N(Cc1ccc(Cl)cc1)CC2,,p24,MT-4,95 µM,,,≤20%
C[C@H]1CC[C@@]2(OC1)O[C@H]1C[C@H]3[C@@H]4CC=C5C[C@@H](O[C@@H]6O[C@H](CO)[C@H](O[C@@H]7O[C@H](CO)[C@@H](O)[C@H](O[C@@H]8OC[C@@H](O)C(O)[C@H]8O)[C@H]7O[C@@H]7O[C@H](CO)[C@@H](O)[C@H](O)[C@H]7O)[C@H](O)[C@H]6O)CC[C@]5(C)[C@H]4CC(=O)[C@]3(C)[C@H]1[C@@H]2C,,luciferase / single cycle,SupT1,30 µM,pseudotyped,,99.95%
Cc1ccc(N(C)C(=O)[C@H](Cc2ccccc2)NC(=O)Cc2cccc3ccccc23)cc1,,fluorescence,,20 µM,,NL4-3,100%
O=C(NCCc1ccccc1)Nc1nc2ccccc2s1,,cytopathic effect / XTT,MT-4,10 µg/mL,,,99–100%
C[C@@H](CCC(=O)[C@](C)(O)[C@H]1[C@@H](O)C[C@H]2[C@@H]3CC=C4C[C@@H](O[C@@H]5O[C@H](CO)[C@H](O[C@@H]6O[C@H](CO)[C@@H](O)[C@H](O[C@@H]7OC[C@@H](O)C(O)[C@H]7O)[C@H]6O[C@@H]6O[C@H](CO)[C@@H](O)[C@H](O)[C@H]6O)[C@H](O)[C@H]5O)CC[C@]4(C)[C@H]3CC[C@@]21C)CO[C@@H]1O[C@H](CO)[C@@H](O)[C@H](O)[C@H]1O,,luciferase / single cycle,SupT1,30 µM,pseudotyped,,47.72%
Nc1ccc(S(=O)(=O)O)c2cccc(O)c12,,syncytia,MOLT-3,10 µg/mL,,,25%
COC(=O)C(=O)c1csc(NC(=O)NCCc2ccccc2)n1,,cytopathic effect / XTT,MT-4,10 µg/mL,,,0%
O=C(NC1CC1)c1cn2c(c1O)C(=O)N(Cc1ccc(F)cc1)CC2,,p24,MT-4,95 µM,,,≤20%
COc1cc([C@@H]2c3cc4c(cc3[C@H](O)[C@H]3COC(=O)[C@H]23)OCO4)cc(OC)c1OC,,p24,H9,0.05 µM,,IIIB,0%
C[C@H]1CC[C@@]2(OC1)O[C@H]1C[C@H]3[C@@H]4CC=C5C[C@@H](O[C@@H]6O[C@H](CO)[C@H](O[C@@H]7O[C@H](CO)[C@@H](O)[C@H](O[C@@H]8OC[C@@H](O)C(O)[C@H]8O)[C@H]7O[C@@H]7O[C@H](CO)[C@@H](O)[C@H](O)[C@H]7O)[C@H](O)[C@H]6O)CC[C@]5(C)[C@H]4CC[C@]3(C)[C@H]1[C@@H]2C,,luciferase / single cycle,SupT1,30 µM,pseudotyped,,99.95%
C=C1[C@H](n2cnc3c(N)ncnc32)O[C@@H]1CO,,antigen,MT-4,100 µg/mL,,,99.9%
Nc1nc(NC2CC2)c2ncn([C@H]3C=C[C@@H](CO)C3)c2n1,,p24,PBMC,0.25 µM,,KAB Clinical isolate,37%
Nc1ccn([C@@H]2C=CC[C@@H](CO)O2)c(=O)n1,,ELISA,MT-4,100 µM,,IIIB,0%
Nc1ncnc2c1ncn2[C@H]1C[C@@H](CO)O1,,antigen,MT-4,3 µg/mL,,,99.9%

For reference, 7 entries again:

SMILES	changes	read by	cells	dose	conditions	strain	value
CC(C)CN(C[C@@H](O)[C@H](Cc1ccccc1)NC(=O)[C@@H](NC(=O)CNC(C)(C)c1cccc(F)c1)C(C)(C)C)S(=O)(=O)c1ccc2ncccc2c1			MT-2	90 µM		RF	<1%
c1ccc2c(-c3ccc(-c4ccc(-c5ccc(-c6cccc7ccccc67)s5)c5ccccc45)s3)cccc2c1		p24 / ELISA / antigen	C8166	1 µM		IIIB	45.45%
NCC(=O)N1CCC[C@H]1C(=O)NCC(N)=O		p24	MT-2	20 µM		LAV	61%
[N-]=[N+]=NC[C@H]1[C@H](n2cnc3c(N)ncnc32)O[C@@H]1CO		antigen	MT-4	3 µg/mL			85%
CC(C)CN(C[C@@H](O)[C@H](Cc1ccccc1)NC(=O)[C@@H](NC(=O)CNC(C)(C)c1cccc(F)c1)C(C)C)S(=O)(=O)c1ccc2ncccc2c1			MT-2	90 µM		RF	<1%
COC(=O)N1c2ccc3ccccc3c2C=CC1C#N		syncytia	MOLT-3	50 µM		IIIB	37.8%
CC(C)CN(C[C@@H](O)[C@H](Cc1ccccc1)NC(=O)[C@@H](NC(=O)CNC(C)(C)c1cccc(F)c1)C(C)(C)C)S(=O)(=O)c1ccc2nc(N)sc2c1			MT-2	90 µM		RF	<1%

Conditions beyond the fields shown may differ between rows. a–b is a range or a potency band. Blank or dashed fields: not listed here.